Compound potency records, mixed from different reports. Data source: NIAID ChemDB in PubChem.

Common to all: tests on isolated targets; organism: HIV-1; target: Protease

ICn: concentration for n% inhibition.

smiles,read-out,read by,conditions,mutations,result
CC(C)[C@H](NC(=O)OCc1cncs1)C(=O)N[C@@H](Cc1ccccc1)[C@H](O)CN1CCN(Cc2ccccc2)C[C@H]1C(=O)NC(C)(C)C,IC50,substrate cleavage,-,-,<1 µM
CC(C)NC(=O)[C@@H]1CCCN1C(=O)[C@@H](O)[C@H](Cc1ccccc1)NC(=O)[C@H](CC(N)=O)NC(=O)OCc1ccccc1,IC50,-,-,-,<5 µM
CCN(CC)C(=O)NCCC(C)(C)CN(C[C@@H](O)[C@H](Cc1ccccc1)NC(=O)O[C@H]1CO[C@H]2OCC[C@H]21)S(=O)(=O)c1ccc2c(c1)OCO2,Ki,fluorescence,-,-,<0.001 µM
CC(C)(C)OC(=O)N[C@@H](Cc1ccccc1)[C@H](O)CNC[C@@H](O)[C@H](Cc1ccccc1)NC(=O)O[C@@H]1CCc2ccccc21,IC50,HPLC,pH 5.5,-,<10 µM
COc1ccc(CN2CCN(C[C@@H](O)[C@H](Cc3ccccc3)NC(=O)[C@@H](NC(=O)OCc3cnc(C(C)C)s3)C(C)C)[C@H](C(=O)NC(C)(C)C)C2)cc1OC,IC50,substrate cleavage,-,-,<0.0005 µM
CC(C)(C)NC(=O)[C@@H]1CCCN1C(=O)[C@@H](O)[C@H](Cc1ccccc1)NC(=O)[C@H](CS(C)(=O)=O)NC(=O)COc1ccc2ccccc2c1,IC50,-,-,-,<0.05 µM
CCCNC(=S)NCCCC(C)(C)CN(C[C@@H](O)[C@H](Cc1ccccc1)NC(=O)O[C@H]1CO[C@H]2OCC[C@H]21)S(=O)(=O)c1ccc2c(c1)OCO2,Ki,fluorescence,-,-,<0.001 µM
CC(C)(C)OC(=O)N[C@@H](Cc1ccccc1)[C@H](O)CNC[C@@H](O)[C@H](Cc1ccccc1)NC(=O)OC(C)(C)Cc1ccccc1,IC50,HPLC,pH 5.5,-,<10 µM
CC(C)c1ccccc1Sc1c(O)cc(-c2ccc(OCc3ccccn3)cc2)oc1=O,IC50,HPLC,pH 4.7,-,0.14 µM
CC(C)(CCCCNS(C)(=O)=O)CN(C[C@@H](O)[C@H](Cc1ccccc1)NC(=O)O[C@H]1CO[C@H]2OCC[C@H]21)S(=O)(=O)c1cccc(N)c1,Ki,fluorescence,-,-,<0.001 µM
CC(C)C[C@H](NC(=O)[C@@H](NC(=O)CCCCCCCCCCCCCCC(=O)N[C@@H](CC(N)=O)C(=O)N[C@@H](Cc1ccccc1)C(=O)O)C(C)O)C(=O)N[C@@H](CCc1ccccc1)C(N)=O,IC50,-,-,-,2 µM
CC(C)c1nc(COC(=O)N[C@H](C(=O)N[C@@H](Cc2ccccc2)[C@H](O)CN2CCN(Cc3ccc4ccccc4n3)C[C@H]2C(=O)NC(C)(C)C)C(C)C)cs1,IC50,substrate cleavage,-,-,<0.0005 µM
CC(C)C[C@H](NC(=O)[C@@H](NC(=O)CCCCCCCCCCCCCCC(=O)N[C@@H](CC(N)=O)C(=O)N[C@@H](Cc1ccccc1)C(=O)O)C(C)O)C(=O)N[C@@H](Cc1cccc2ccccc12)C(N)=O,IC50,-,-,-,3.06 µM
COc1ccc(CN2CCN(C[C@@H](O)[C@H](Cc3ccccc3)NC(=O)[C@@H](NC(=O)OCc3csc(C(C)C)n3)C(C)C)[C@H](C(=O)NC(C)(C)C)C2)cc1OC,IC50,substrate cleavage,-,-,<0.0005 µM
Cc1ccc(C(C)(C)C)c(Sc2c(O)cc(-c3ccc(OCc4cccnc4)cc3)oc2=O)c1,IC50,HPLC,pH 4.7,-,0.024 µM
CC(C)C[C@H](NC(=O)[C@H](CC(C)C)NC(=O)[C@@H](NC(=O)CCCCCCCCCCCCCCC(=O)N[C@@H](CC(N)=O)C(=O)N[C@@H](Cc1ccccc1)C(=O)O)C(C)O)C(=O)O,IC50,-,-,-,>5.5 µM
Cc1nc(COc2ccc(-c3cc(O)c(Sc4ccccc4C(C)C)c(=O)o3)cc2)cs1,IC50,HPLC,pH 4.7,-,0.108 µM
CC(C)(CCCCNC(=O)c1ccco1)CN(C[C@@H](O)[C@H](Cc1ccccc1)NC(=O)O[C@H]1CO[C@H]2OCC[C@H]21)S(=O)(=O)c1ccc2c(c1)OCO2,Ki,fluorescence,-,-,<0.001 µM
CC(C)c1ncc(CN(C)C(=O)N[C@H](C(=O)N[C@@H](Cc2ccccc2)[C@H](O)CN2C[C@H]3CCCC[C@H]3C[C@H]2C(=O)NC(C)(C)C)C(C)C)s1,IC50,substrate cleavage,-,-,~0.0005 µM
CC(=O)NCCC(C)(C)CN(C[C@@H](O)[C@H](Cc1ccccc1)NC(=O)O[C@H]1CO[C@H]2OCC[C@H]21)S(=O)(=O)c1ccc2c(c1)OCO2,Ki,fluorescence,-,-,<0.001 µM
CC(C)C[C@H](NC(=O)[C@@H](NC(=O)CCCCCCCCCCCCCCC(=O)N[C@@H](CC(N)=O)C(=O)N[C@@H](Cc1ccccc1)C(=O)O)C(C)O)C(=O)N[C@H](C(N)=O)C1CCCCC1,IC50,-,-,PR-L10I K45R I54V L63P A71V V82T L90M I93L,~3.1 µM
COc1ccc(S(=O)(=O)N(C[C@@H](O)[C@H](Cc2ccccc2)NC(=O)O[C@H]2CCCO2)CC2(CCC#N)CCCCC2)cc1,Ki,fluorescence,-,-,<0.001 µM
C[S+](C)C[C@H](NC(=O)COc1cccc2ccccc12)C(=O)N[C@@H](Cc1ccccc1)[C@H](O)C(=O)N1CSC(C)(C)[C@H]1C(=O)NC(C)(C)C,IC50,-,-,-,<0.05 µM
CCc1ncc(COC(=O)N[C@H](C(=O)N[C@@H](Cc2ccccc2)[C@H](O)CN2CCN(Cc3ccc(OC)c(OC)c3)C[C@H]2C(=O)NC(C)(C)C)C(C)C)s1,IC50,substrate cleavage,-,-,<1 µM
CC(C)(CCCCOC(N)=O)CN(C[C@@H](O)[C@H](Cc1ccccc1)NC(=O)O[C@H]1CO[C@H]2OCC[C@H]21)S(=O)(=O)c1ccc2c(c1)OCO2,Ki,fluorescence,-,-,<0.001 µM
CCC(C)[C@H](NC(=O)[C@H](CCSC)NC(=O)CCCCCCCCCCCCCCC(=O)N[C@@H](CC(N)=O)C(=O)N[C@@H](Cc1ccccc1)C(=O)O)C(=O)N[C@@H](Cc1ccc(N)cc1)C(N)=O,Ki,-,-,-,0.085 µM
CCCCOC(=O)NCCCCC(C)(C)CN(C[C@@H](O)[C@H](Cc1ccccc1)NC(=O)O[C@H]1CO[C@H]2OCC[C@H]21)S(=O)(=O)c1ccc2c(c1)OCO2,Ki,fluorescence,-,-,<0.001 µM
O=c1oc(-c2ccc(OCc3cccnc3)cc2)cc(O)c1SCc1ccccc1,IC50,HPLC,pH 4.7,-,3.3 µM
CN(C)C(=O)NCCC(C)(C)CN(C[C@@H](O)[C@H](Cc1ccccc1)NC(=O)O[C@H]1CO[C@H]2OCC[C@H]21)S(=O)(=O)c1ccc(N)cc1,Ki,fluorescence,-,-,<0.001 µM
COc1ccc(CN2CCN(C[C@@H](O)[C@H](Cc3ccccc3)NC(=O)[C@@H](NC(=O)OCc3cnc(C)s3)C(C)C)[C@H](C(=O)NC(C)(C)C)C2)cc1OC,IC50,substrate cleavage,-,-,<1 µM
Cc1ccc(C(C)(C)C)c(Sc2c(O)cc(-c3ccc(OCc4csc(C)n4)cc3)oc2=O)c1,IC50,HPLC,pH 4.7,-,0.04 µM
CC(C)c1nc(CN(C)C(=O)N[C@H](C(=O)N[C@@H](Cc2ccccc2)[C@H](O)CN2CC[C@@H](OCc3cncs3)C[C@H]2C(=O)NC(C)(C)C)C(C)C)cs1,IC50,substrate cleavage,-,-,<0.0005 µM
CC(C)(CCCNC(=O)OC1COCOC1)CN(C[C@@H](O)[C@H](Cc1ccccc1)NC(=O)O[C@H]1CO[C@H]2OCC[C@H]21)S(=O)(=O)c1ccc2c(c1)OCO2,Ki,fluorescence,-,-,<0.001 µM
CC(C)(C)NC(=O)[C@H]1N(C(=O)[C@@H](O)[C@H](Cc2ccccc2)NC(=O)[C@H](CC(N)=O)NC(=O)OCOc2cccc3ccccc23)CSC1(C)C,IC50,-,-,-,<0.05 µM
CC(C)C[C@H](NC(=O)[C@@H](NC(=O)CCCCCCCCCCCCCCC(=O)N[C@@H](CC(N)=O)C(=O)N[C@@H](Cc1ccccc1)C(=O)O)C(C)O)C(=O)N[C@@H](Cc1ccc(N)cc1)C(N)=O,IC50,-,-,-,1.64 µM
CN(C)C(=O)NCCCCC(C)(C)CN(C[C@@H](O)[C@H](Cc1ccccc1)NC(=O)O[C@H]1CO[C@H]2OCC[C@H]21)S(=O)(=O)c1ccc(N)cc1,Ki,fluorescence,-,-,<0.001 µM
COC(=O)N[C@@H](C(=O)N[C@@H](Cc1ccccc1)[C@H](O)CNC[C@@H](O)[C@H](Cc1ccccc1)NC(=O)OC(C)(C)C)C(C)(C)C,IC50,HPLC,pH 5.5,-,~10 µM
C=CCCOC(=O)NCCCCC(C)(C)CN(C[C@@H](O)[C@H](Cc1ccccc1)NC(=O)O[C@H]1CO[C@H]2OCC[C@H]21)S(=O)(=O)c1ccc2c(c1)OCO2,Ki,fluorescence,-,-,<0.001 µM
CCC(C)NC(=O)[C@@H]1CCCN1C(=O)[C@@H](O)[C@H](Cc1ccccc1)NC(=O)[C@H](CC(N)=O)NC(=O)OCc1ccccc1,IC50,-,-,-,>0.05 µM
CCCOC(=O)NCCC(C)(C)CN(C[C@@H](O)[C@H](Cc1ccccc1)NC(=O)O[C@H]1CO[C@H]2OCC[C@H]21)S(=O)(=O)c1ccc2c(c1)OCO2,Ki,fluorescence,-,-,<0.001 µM
CC(C)[C@H](NC(=O)[C@@H](N)Cc1ccccc1)C(=O)N[C@@H](Cc1ccccc1)[C@H](O)CNC[C@@H](O)[C@H](Cc1ccccc1)NC(=O)[C@@H](NC(=O)[C@@H](N)Cc1ccccc1)C(C)C,IC50,HPLC,pH 5.5,-,<10 µM
CC(C)(CCCNC(=O)c1cccs1)CN(C[C@@H](O)[C@H](Cc1ccccc1)NC(=O)O[C@H]1CO[C@H]2OCC[C@H]21)S(=O)(=O)c1ccc2c(c1)OCO2,Ki,fluorescence,-,-,<0.001 µM
C[C@H](NC(=O)OCc1ccccc1)C(=O)N[C@@H](Cc1ccccc1)[C@H](O)CNC[C@@H](O)[C@H](Cc1ccccc1)NC(=O)OC(C)(C)C,IC50,HPLC,pH 5.5,-,<10 µM

Repeating the final 4 entries:

smiles	read-out	read by	conditions	mutations	result
CCCOC(=O)NCCC(C)(C)CN(C[C@@H](O)[C@H](Cc1ccccc1)NC(=O)O[C@H]1CO[C@H]2OCC[C@H]21)S(=O)(=O)c1ccc2c(c1)OCO2	Ki	fluorescence	-	-	<0.001 µM
CC(C)[C@H](NC(=O)[C@@H](N)Cc1ccccc1)C(=O)N[C@@H](Cc1ccccc1)[C@H](O)CNC[C@@H](O)[C@H](Cc1ccccc1)NC(=O)[C@@H](NC(=O)[C@@H](N)Cc1ccccc1)C(C)C	IC50	HPLC	pH 5.5	-	<10 µM
CC(C)(CCCNC(=O)c1cccs1)CN(C[C@@H](O)[C@H](Cc1ccccc1)NC(=O)O[C@H]1CO[C@H]2OCC[C@H]21)S(=O)(=O)c1ccc2c(c1)OCO2	Ki	fluorescence	-	-	<0.001 µM
C[C@H](NC(=O)OCc1ccccc1)C(=O)N[C@@H](Cc1ccccc1)[C@H](O)CNC[C@@H](O)[C@H](Cc1ccccc1)NC(=O)OC(C)(C)C	IC50	HPLC	pH 5.5	-	<10 µM

Conditions beyond the fields shown may differ between rows. An empty or dashed field is not shown.